Measured values from several laboratories, pooled; numbers as filed in NIAID ChemDB.

Common to all: tests in culture; agent: Hepatitis B virus; read-out: EC50

Lines come from different laboratories, so protocols vary. a–b is a range or a potency band. An empty or dashed field is not shown. ECn: concentration that inhibits the pathogen or its effect by n%.

smiles	strain or isolate	cells	result
Cc1cn([C@@H]2C[C@@H](N=[N+]=[N-])[C@H](CO)O2)c(=O)[nH]c1=O		HepG2.2.15	>10 µM
Nc1ccn([C@@H]2CS[C@H](CO)O2)c(=O)n1			0.064 µM
Nc1ccn([C@@H]2CS[C@H](CO)O2)c(=O)n1		HepG2.2.15	0.056 µM
Cc1cn([C@H]2O[C@@H](CO)C[C@H]2F)c(=O)[nH]c1=O		2.2.15	>10 µM
Nc1ccn([C@@H]2C=C[C@H](CO)O2)c(=O)n1	RTM204	HEPAD79	<0.96 µM
C#C[C@@]1(CO)O[C@H](n2cnc3c(=O)[nH]c(N)nc32)C[C@H]1O		2.2.15	>35 µM
Nc1ccn([C@@H]2C[C@@H](F)[C@H](CO)O2)c(=O)n1		HepG2.2.15	0.5 µM
Nc1nc(N)c2ncn(CC(CO)OCP(=O)(O)O)c2n1		HB611	1.3 µM
Nc1nc(=O)n([C@@H]2C[C@@H](O)[C@H](CO)O2)cc1F		HepG2.2.15	5 µM
Nc1ncnc2c1ncn2CCOCP(=O)(O)O	WILD TYPE	Huh7	0.58 µM
N=c1ncn(CC(CO)OCP(=O)(O)O)c2nc[nH]c12		HB611	200 µM
Nc1nc(=O)n([C@@H]2C[C@@H](F)[C@H](CO)O2)cc1F		2.2.15	4 µM
Nc1nc(=O)n([C@@H]2CS[C@H](CO)O2)cc1F	RTM204	HepAD38	<1.16 µM
Cc1cn([C@H]2O[C@@H](CO)[C@H](O)[C@H]2F)c(=O)[nH]c1=O	M550V		1.5 µM
Nc1ccn([C@@H]2C=C[C@H](CO)O2)c(=O)n1		2.2.15	<0.1 µM
Nc1ccn([C@@H]2CC[C@H](CO)O2)c(=O)n1		HepG2.2.15	0.1 µM
Nc1nc(N)c2ncn(CCOCP(=O)(O)O)c2n1		HepG2 2.2.15	1.2 µM
Nc1ccn(C[C@@H](CO)OCP(=O)(O)O)c(=O)n1		HB611	9 µg/mL
C=C1[C@H](CO)[C@@H](O)C[C@@H]1n1cnc2c(=O)[nH]c(N)nc21		HepG2 2.2.15	0.00375 µM
Nc1ncnc2c1ncn2[C@@H]1CC[C@H](CO)O1		2.2.15	5 µM
Nc1ncnc2c1ncn2[C@@H]1CC[C@H](CO)O1		2.2.15	5 µM
Nc1ccn([C@H]2CC[C@@H](CO)O2)c(=O)n1		2.2.15	2.8 µM
Nc1nc(=O)n([C@@H]2C[C@@H](O)[C@H](CO)O2)cc1F		2.2.15	5 µM
Nc1nc(=O)n([C@@H]2CS[C@H](CO)O2)cc1F		2.2.15	0.04 µM
Nc1nc(=O)n([C@@H]2CC[C@H](CO)O2)cc1F	RTM204	HepAD38	<0.31 µM
Cc1cn([C@@H]2CC[C@H](CO)O2)c(=O)[nH]c1=O		HepG2.2.15	>10 µM
Nc1ncnc2c1ncn2[C@H]1CC[C@@H](CO)O1		HB611	14.2 µg/mL
Nc1ccn([C@@H]2C[C@@H](O)[C@H](CO)O2)c(=O)n1		2.2.15	0.1 µM
CC(O)(Cn1cnc2c(N)ncnc21)P(=O)(O)O		HB611	45 µM
Cc1cn([C@@H]2C[C@@H](O)[C@H](CO)O2)c(=O)[nH]c1=O	M204V		0.85 µM
Nc1ccn([C@@H]2CS[C@H](CO)O2)c(=O)n1		HepG2.2.15	0.05 µM
Nc1ncnc2c1ncn2[C@@H]1C[C@@H](F)[C@H](CO)O1		2.2.15	>10 µM
CCCCNc1nc2cc(Cl)c(Cl)cc2n1[C@H]1C[C@@H](CO)[C@H](O)[C@@H]1O			1.4 µM
Nc1ccn([C@@H]2CC[C@H](CO)O2)c(=O)n1		2.2.15	0.1 µM
Nc1nc2c(ncn2COC(CO)CO)c(=O)[nH]1		HepG2 2.2.15	>100 µM
Cc1cn([C@@H]2C=C[C@H](CO)O2)c(=O)[nH]c1=O		2.2.15	>10 µM
O=c1[nH]c(=O)n([C@H]2O[C@@H](CO)C[C@H]2F)cc1Cl		2.2.15	>50 µM
Cc1cn([C@@H]2CC[C@H](CO)O2)c(=O)[nH]c1=O		2.2.15	>10 µM
Nc1cc(OCCOCP(=O)(O)O)nc(N)n1		HepAD38	0.08 µg/mL
Nc1ncnc2c1ncn2[C@@H]1C[C@@H](N)[C@H](CO)O1		2.2.15	>10 µM
Nc1nc(=O)n([C@H]2CS[C@@H](CO)O2)cc1F	RTM204	HepAD38	<6.94 µM
CNc1ncnc2c1ncn2[C@@H]1O[C@@H](CO)C[C@H]1F		2.2.15	>10 µM
Nc1nc(=O)n([C@@H]2CS[C@H](CO)O2)cc1F		2.2.15	0.04 µM
Nc1nc(=O)n(CC(CO)OCP(=O)(O)O)cc1-c1ccccc1		HB611	200 µM
OC[C@@H]1O[C@@H](n2c(Br)nc3ccccc32)[C@H](O)[C@@H]1O			8.8–16 µM
O=c1[nH]c(=O)n([C@H]2O[C@@H](CO)C[C@H]2F)cc1F		2.2.15	>50 µM
Nc1ncnc2c1ncn2[C@@H]1C[C@@H](F)[C@H](CO)O1		HepG2.2.15	>10 µM
N#Cc1cn([C@H]2CC[C@@H](CO)C2)c2ncnc(N)c12			3 µM
Cc1cn([C@H]2C[C@H](N=[N+]=[N-])[C@@H](CO)O2)c(=O)[nH]c1=O		HepG2 2.2.15	>100 µM
Nc1ncnc2c1ncn2CC(CF)OCP(=O)(O)O		HB611	12 µM
Nc1nc2c(ncn2CCC(CO)CO)c(=O)[nH]1	Mutation M550I	HepG2	1217 µM
Nc1nc(=O)n([C@H]2CC[C@H](CO)O2)cc1F		2.2.15	0.5 µM
Nc1nc(=O)n([C@@H]2C=C[C@H](CO)O2)cc1F		HepG2.2.15	<0.1 µM
O=c1[nH]c(=O)n([C@H]2C[C@H](Cl)[C@@H](CO)O2)cc1F			5 µg/mL
Nc1ncc2ncn(CCOCP(=O)(O)O)c2n1		HB611	17 µM
Cc1cn([C@H]2C[C@H](OP([O-])(=S)OC[C@H]3O[C@@H](n4cnc5c(N)ncnc54)C[C@@H]3O)[C@@H](COP([O-])(=S)O[C@H]3C[C@H](n4ccc(=O)[nH]c4=O)O[C@@H]3CO)O2)c(=O)[nH]c1=O		HepG2.2.15	2.2 µM
Nc1ncnc2c1ncn2CCOCP(=O)(O)O		HB611	0.054 µg/mL
Cc1cn([C@@H]2C=C[C@H](CO)O2)c(=O)[nH]c1=O		2.2.15	>10 µM
Nc1ccn(CC(CF)OCP(=O)(O)O)c(=O)n1		HB611	200 µM
C[C@H](Cn1cnc2c(N)ncnc21)OCP(=O)(O)O	M204I		1.95 µM
Nc1ccn([C@H]2CC[C@@H](CO)O2)c(=O)n1		HepG2 2.2.15	100 µM
Nc1ccn([C@@H]2CC[C@H](CO)O2)c(=O)n1		2.2.15	0.01 µM
COc1ccc(Sc2nc(N)nc3c2ncn3CCOCP(=O)(OCC(F)(F)F)OCC(F)(F)F)cc1		HepG2	0.012 µM
O=C(N/C(C(=O)N1CCCCC1)=C(/Cl)c1ccccc1)c1ccccc1			21.2 µM
Nc1ncnc2c1ncn2C[C@@H](CO)OCP(=O)(O)O		HB611	0.35 µg/mL
Nc1ccn([C@@H]2CS[C@H](CO)O2)c(=O)n1	M550I		>50 µM
Nc1nc(Cl)nc2c1ncn2[C@@H]1C[C@@H](O)[C@H](CO)O1		2.2.15	>10 µM
Nc1nc(=O)n([C@H]2O[C@@H](CO)C=C2F)cc1F	RTM204	HepAD38	<0.63 µM
Nc1nc(N)c(C=O)c(OCCOCP(=O)(O)O)n1		HepAD38	6 µg/mL
Nc1ncnc2c1ncn2[C@@H]1O[C@@H](CO)CC1F		2.2.15	>100 µM
Nc1nc(=O)n([C@@H]2CC[C@H](CO)O2)cc1Cl		HepG2.2.15	10 µM
O=c1[nH]cnc2c1ncn2[C@H]1CC[C@@H](CO)O1		HepG2 2.2.15	>100 µM
Nc1ncnc2c1ncn2CCOCP(=O)(O)O		HepG2 2.2.15	1.3 µM
Nc1ccn([C@H]2CC[C@@H](CO)O2)c(=O)n1		HepG2 2.2.15	100 µM
Nc1nc(=O)n([C@@H]2C=C[C@H](CO)O2)cc1F		2.2.15	<0.1 µM
Nc1nc(=O)n([C@H]2O[C@@H](CO)C[C@H]2F)cc1Br		2.2.15	>10 µM
C[C@@H](COc1cc(N)nc(N)n1)OCP(=O)(O)O		HepAD38	17 µg/mL

Repeating the final 8 entries:

smiles	strain or isolate	cells	result
Nc1ncnc2c1ncn2[C@@H]1O[C@@H](CO)CC1F		2.2.15	>100 µM
Nc1nc(=O)n([C@@H]2CC[C@H](CO)O2)cc1Cl		HepG2.2.15	10 µM
O=c1[nH]cnc2c1ncn2[C@H]1CC[C@@H](CO)O1		HepG2 2.2.15	>100 µM
Nc1ncnc2c1ncn2CCOCP(=O)(O)O		HepG2 2.2.15	1.3 µM
Nc1ccn([C@H]2CC[C@@H](CO)O2)c(=O)n1		HepG2 2.2.15	100 µM
Nc1nc(=O)n([C@@H]2C=C[C@H](CO)O2)cc1F		2.2.15	<0.1 µM
Nc1nc(=O)n([C@H]2O[C@@H](CO)C[C@H]2F)cc1Br		2.2.15	>10 µM
C[C@@H](COc1cc(N)nc(N)n1)OCP(=O)(O)O		HepAD38	17 µg/mL